In data set [1] the test system is O=P(O)(O)O. In words: purified protein. The settings on record: acetate-forming direction; co-substrate acetyl phosphate; 10 mM MgCl2, 100 mM Tris-HCl pH 7.0, 37 °C; apparent; pH 7.0; 37.0 °C.
Data set [2] deals with O=P(O)(O)OP(=O)(O)O. Briefly: purified protein. The following applies: acetyl phosphate-forming direction; co-substrate acetate; 5 mM MgCl2, morpholinoethanesulfonic acid pH 5.5, 600 mM hydroxylamine, 45 °C; apparent; pH 5.5.

The values below come from article PMC5517563 (Scientific Reports, 2017).

One may read the Km as the substrate concentration at which the rate is half of its maximum. For orientation: kcat means the number of substrate molecules converted per active site and unit of time at saturation. By kcat/Km is commonly meant the second-order rate constant that governs catalysis at low substrate concentration.

For the substance “EhACK (Entamoeba histolytica acetate kinase) (Entamoeba histolytica HM-1:IMSS; M324I/Q323G)”, in data set [1], the Km was determined as 7.3 ± 0.5 mM, the kcat amounted to 28 s⁻¹ and the specificity constant (kcat/Km) is 3800 M⁻¹ s⁻¹. Besides, in data set [2], the Km is reported as 2.0 ± 0.37 mM, the kcat is 0.45 s⁻¹ and the specificity constant (kcat/Km) was 230 M⁻¹ s⁻¹.

Take “EhACK (Entamoeba histolytica acetate kinase) (Entamoeba histolytica HM-1:IMSS; D272A/M324I/Q323G/R274A)”: in data set [1], the Km worked out at 18 ± 1.2 mM, the kcat is 0.076 s⁻¹ and the specificity constant (kcat/Km) came to 4 M⁻¹ s⁻¹.
